Molecular target: Ace (Accessory cholera enterotoxin) (Vibrio cholerae, UniProt P38441)
Assay: thermal unfolding by far-UV CD at […] nm
Conditions: 0.1 M potassium phosphate pH 8.0; 5 μM protein; reference: native Ace 52 °C

By UniProt entry, the sequences of proteins in these tests, tags left out. Where a name states a change or a piece, a line headed by the entry shows the natural chain unless it says otherwise.
UniProt P38441: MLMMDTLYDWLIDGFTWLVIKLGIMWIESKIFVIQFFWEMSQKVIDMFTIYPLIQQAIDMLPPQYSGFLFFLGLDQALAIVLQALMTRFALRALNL

Structure (SMILES) | T M [°C]
CC(C)(C)C1CCc2c(sc(NC(=O)c3ccco3)c2C(=O)O)C1 (centres unmarked) | 57
O=C(O)c1cc(O)c(O)c(OC(=O)c2cc(O)c(O)c(O)c2)c1 | 55

— PMC4634967, “Effects of Small Molecule Calcium-Activated Chloride Channel Inhibitors on Structure and Function of Accessory Cholera Enterotoxin (Ace) of Vibrio cholerae” (2015)
